Experimental data as given in US20070049564A1 (Wyeth, priority 2005, published 2007).

Assays:
Experiment in all cases: MIC, broth microdilution
S. cholerasius GC 1355 = tested on: S. cholerasius GC 1355
Salmonella spp. GC 235 = tested on: Salmonella spp. GC 235
Salmonella spp. GC 566 = tested on: Salmonella spp. GC 566

SMILES | MINIMAL INHIBITORY CONCENTRATION MIC (S. cholerasius GC 1355; Human Serum) [UG/ML] | MINIMAL INHIBITORY CONCENTRATION MIC (S. cholerasius GC 1355; Mouse Serum) [UG/ML] | MINIMAL INHIBITORY CONCENTRATION MIC (S. cholerasius GC 1355; Water) [UG/ML] | MINIMAL INHIBITORY CONCENTRATION MIC (Salmonella spp. GC 235; Human Serum) [UG/ML] | MINIMAL INHIBITORY CONCENTRATION MIC (Salmonella spp. GC 235; Mouse Serum) [UG/ML] | MINIMAL INHIBITORY CONCENTRATION MIC (Salmonella spp. GC 235; Water) [UG/ML] | MINIMAL INHIBITORY CONCENTRATION MIC (Salmonella spp. GC 566; Human Serum) [UG/ML] | MINIMAL INHIBITORY CONCENTRATION MIC (Salmonella spp. GC 566; Mouse Serum) [UG/ML] | MINIMAL INHIBITORY CONCENTRATION MIC (Salmonella spp. GC 566; Water) [UG/ML] | MINIMAL INHIBITORY CONCENTRATION MIC (S. cholerasius GC 1355; pre-incubated in Mouse Serum) | MINIMAL INHIBITORY CONCENTRATION MIC (S. cholerasius GC 1355; pre-incubated in Water) [UG/ML] | MINIMAL INHIBITORY CONCENTRATION MIC (Salmonella spp. GC 235; pre-incubated in Mouse Serum) [UG/ML] | MINIMAL INHIBITORY CONCENTRATION MIC (Salmonella spp. GC 235; pre-incubated in Water) [UG/ML] | MINIMAL INHIBITORY CONCENTRATION MIC (Salmonella spp. GC 566; pre-incubated in Mouse Serum) | MINIMAL INHIBITORY CONCENTRATION MIC (Salmonella spp. GC 566; pre-incubated in Water) [UG/ML] | MINIMAL INHIBITORY CONCENTRATION MIC (S. cholerasius GC 1355; pre-incubated in Human Serum) [UG/ML] | MINIMAL INHIBITORY CONCENTRATION MIC (Salmonella spp. GC 235; pre-incubated in Human Serum) [UG/ML] | MINIMAL INHIBITORY CONCENTRATION MIC (Salmonella spp. GC 566; pre-incubated in Human Serum) [UG/ML]
CCCCCCC(=O)OCOC(=O)N(CC(=O)Nc1cc(N(C)C)c2c(c1O)C(=O)C1=C(O)[C@]3(O)C(=O)C(C(N)=O)=C(O)[C@@H](N(C)C)[C@@H]3C[C@@H]1C2)C(C)(C)C [Example 48, ({[(2-{[(5aR,6aS,7S,10aS)-9-(aminocarbonyl)-4,7-bis(dimethylamino)-1,8,10a,11-tetrahydroxy-10,12-dioxo-5,5a,6,6a,7,10,10a,12-octahydrotetracen-2-yl]amino}-2-oxoethyl)(tert-butyl)amino]carbonyl}oxy)methyl heptanoate] | >64 | 4 | >64 | 32 | 0.50 | >64 | >64 | 2 | >64 |  |  |  |  |  |  |  |  | 
CCCCN(CC(=O)Nc1cc(N(C)C)c2c(c1O)C(=O)C1=C(O)[C@]3(O)C(=O)C(C(N)=O)=C(O)[C@@H](N(C)C)[C@@H]3C[C@@H]1C2)C(=O)OCOC(=O)c1cccs1 [Example 23, ({[(2-{[(5aR,6aS,7S,10aS)-9-(aminocarbonyl)-4,7-bis(dimethylamino)-1,8,10a,11-tetrahydroxy-10,12-dioxo-5,5a,6,6a,7,10,10a,12-octahydrotetracen-2-yl]amino}-2-oxoethyl)(butyl)amino]carbonyl}oxy)methyl thiophene-2-carboxylate] |  |  |  |  |  |  |  |  |  | 16 UG/ML | >64 | 2 | >64 | 4 UG/ML | >64 |  |  | 
CCC(=O)OCOC(=O)N(CC(=O)Nc1cc(N(C)C)c2c(c1O)C(=O)C1=C(O)[C@]3(O)C(=O)C(C(N)=O)=C(O)[C@@H](N(C)C)[C@@H]3C[C@@H]1C2)C(C)(C)C [Example 49, ({[(2-{[(5aR,6aS,7S,10aS)-9-(aminocarbonyl)-4,7-bis(dimethylamino)-1,8,10a,11-tetrahydroxy-10,12-dioxo-5,5a,6,6a,7,10,10a,12-octahydrotetracen-2-yl]amino}-2-oxoethyl)(tert-butyl)amino]carbonyl}oxy)methyl propionate] | 64 | 4 | >64 | 16 | 1 | 32 | 32 | 2 | 64 |  |  |  |  |  |  |  |  | 
Cc1ccc(C(=O)OCOC(=O)N(CC(=O)Nc2cc(N(C)C)c3c(c2O)C(=O)C2=C(O)[C@]4(O)C(=O)C(C(N)=O)=C(O)[C@@H](N(C)C)[C@@H]4C[C@@H]2C3)C(C)(C)C)cc1 [Example 47] |  |  |  |  |  |  |  |  |  | 4 UG/ML | >64 | 2 | >64 | 4 UG/ML | >64 | >64 | 64 | >64
CN(C)c1cc(NC(=O)CN(C(=O)OCOC(=O)CC(C)(C)C)C(C)(C)C)c(O)c2c1C[C@H]1C[C@H]3[C@H](N(C)C)C(O)=C(C(N)=O)C(=O)[C@@]3(O)C(O)=C1C2=O [Example 42, ({[(2-{[(5aR,6aS,7S,10aS)-9-(aminocarbonyl)-4,7-bis(dimethylamino)-1,8,10a,11-tetrahydroxy-10,12-dioxo-5,5a,6,6a,7,10,10a,12-octahydrotetracen-2-yl]amino}-2-oxoethyl)(tert-butyl)amino]carbonyl}oxy)methyl 3,3-dimethylbutanoate] |  |  |  |  |  |  |  |  |  | 64 UG/ML and >64 UG/ML | >64 |  | >64 | 32 UG/ML and >64 UG/ML | >64 |  |  | 
CC(C)CC(=O)OCOC(=O)N(CC(=O)Nc1cc(N(C)C)c2c(c1O)C(=O)C1=C(O)[C@]3(O)C(=O)C(C(N)=O)=C(O)[C@@H](N(C)C)[C@@H]3C[C@@H]1C2)C(C)(C)C [Example 53, ({[(2-{[(5aR,6aS,7S,10aS)-9-(aminocarbonyl)-4,7-bis(dimethylamino)-1,8,10a,11-tetrahydroxy-10,12-dioxo-5,5a,6,6a,7,10,10a,12-octahydrotetracen-2-yl]amino}-2-oxoethyl)(tert-butyl)amino]carbonyl}oxy)methyl 3-methylbutanoate] | 64 | 8 | >64 | 64 | 2 | 64 | 32 | 2 | >64 |  |  |  |  |  |  |  |  | 
CCC(C)(C)C(=O)OCOC(=O)N(CC(=O)Nc1cc(N(C)C)c2c(c1O)C(=O)C1=C(O)[C@]3(O)C(=O)C(C(N)=O)=C(O)[C@@H](N(C)C)[C@@H]3C[C@@H]1C2)C(C)(C)C [Example 44, ({[(2-{[(5aR,6aS,7S,10aS)-9-(aminocarbonyl)-4,7-bis(dimethylamino)-1,8,10a,11-tetrahydroxy-10,12-dioxo-5,5a,6,6a,7,10,10a,12-octahydrotetracen-2-yl]amino}-2-oxoethyl)(tert-butyl)amino]carbonyl}oxy)methyl 2,2-dimethylbutanoate] |  |  |  |  |  |  |  |  |  | 16 UG/ML | >64 | 4 | >64 | 8 UG/ML | >64 | >64 | >64 | >64
CCCN(CC(=O)Nc1cc(N(C)C)c2c(c1O)C(=O)C1=C(O)[C@]3(O)C(=O)C(C(N)=O)=C(O)[C@@H](N(C)C)[C@@H]3C[C@@H]1C2)C(=O)OCOC(=O)c1cc(C)cc(C)c1 [Example 26, ({[(2-{[(5aR,6aS,7S,10aS)-9-(aminocarbonyl)-4,7-bis(dimethylamino)-1,8,10a,11-tetrahydroxy-10,12-dioxo-5,5a,6,6a,7,10,10a,12-octahydrotetracen-2-yl]amino}-2-oxoethyl)(propyl)amino]carbonyl}oxy)methyl 3,5-dimethylbenzoate] |  |  |  |  |  |  |  |  |  | 32 UG/ML | >64 | 2 | >64 | 4 UG/ML | >64 |  |  | 
CCCN(CC(=O)Nc1cc(N(C)C)c2c(c1O)C(=O)C1=C(O)[C@]3(O)C(=O)C(C(N)=O)=C(O)[C@@H](N(C)C)[C@@H]3C[C@@H]1C2)C(=O)OCOC(=O)c1ccc(-c2ccccc2)cc1 [Example 24, ({[(2-{[(5aR,6aS,7S,10aS)-9-(aminocarbonyl)-4,7-bis(dimethylamino)-1,8,10a,11-tetrahydroxy-10,12-dioxo-5,5a,6,6a,7,10,10a,12-octahydrotetracen-2-yl]amino}-2-oxoethyl)(propyl)amino]carbonyl}oxy)methyl 1,1′-biphenyl-4-carboxylate] |  |  |  |  |  |  |  |  |  | 32 UG/ML | >64 | 1 | >64 | 2 UG/ML | >64 |  |  | 
CN(C)c1cc(NC(=O)CN(C(=O)OCOC(=O)c2ccc(C(C)(C)C)cc2)C(C)(C)C)c(O)c2c1C[C@H]1C[C@H]3[C@H](N(C)C)C(O)=C(C(N)=O)C(=O)[C@@]3(O)C(O)=C1C2=O [Example 43, ({[(2-{[(5aR,6aS,7S,10aS)-9-(aminocarbonyl)-4,7-bis(dimethylamino)-1,8,10a,11-tetrahydroxy-10,12-dioxo-5,5a,6,6a,7,10,10a,12-octahydrotetracen-2-yl]amino}-2-oxoethyl)(tert-butyl)amino]carbonyl}oxy)methyl 4-tert-butylbenzoate] |  |  |  |  |  |  |  |  |  | 4 UG/ML | >64 | 0.50 | >64 | 2 UG/ML | >64 | >64 | >64 | >64
CCCCOC(=O)N(CC(=O)Nc1cc(N(C)C)c2c(c1O)C(=O)C1=C(O)[C@]3(O)C(=O)C(C(N)=O)=C(O)[C@@H](N(C)C)[C@@H]3C[C@@H]1C2)C(C)(C)C [Example 58, butyl 2-{[(5aR,6aS,7S,10aS)-9-(aminocarbonyl)-4,7-bis(dimethylamino)-1,8,10a,11-tetrahydroxy-10,12-dioxo-5,5a,6,6a,7,10,10a,12-octahydrotetracen-2-yl]amino}-2-oxoethyl(tert-butyl)carbamate] | >64 | >64 | >64 | >64 | >64 | >64 | >64 | >64 | >64 |  |  |  |  |  |  |  |  | 

Where “and” joins values, the source holds several entries; their conditions need not be identical. Equal values may be shown once.
